{
  "sequences": {"note": "Protein sequences, listed by entry. Tags and fused reporters are not part of them. Lines headed by an entry give the natural chain unless they say otherwise; changes in a name come on top. Residues count along the entry.", "UniProt Q8WSF8, 18-236 limits assumed": "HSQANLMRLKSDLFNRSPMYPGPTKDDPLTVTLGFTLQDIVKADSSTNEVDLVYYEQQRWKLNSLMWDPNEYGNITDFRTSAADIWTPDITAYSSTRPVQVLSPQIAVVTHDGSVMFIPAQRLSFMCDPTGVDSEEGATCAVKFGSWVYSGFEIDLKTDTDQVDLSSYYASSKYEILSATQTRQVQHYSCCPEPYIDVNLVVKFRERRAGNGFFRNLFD", "UniProt P02710": "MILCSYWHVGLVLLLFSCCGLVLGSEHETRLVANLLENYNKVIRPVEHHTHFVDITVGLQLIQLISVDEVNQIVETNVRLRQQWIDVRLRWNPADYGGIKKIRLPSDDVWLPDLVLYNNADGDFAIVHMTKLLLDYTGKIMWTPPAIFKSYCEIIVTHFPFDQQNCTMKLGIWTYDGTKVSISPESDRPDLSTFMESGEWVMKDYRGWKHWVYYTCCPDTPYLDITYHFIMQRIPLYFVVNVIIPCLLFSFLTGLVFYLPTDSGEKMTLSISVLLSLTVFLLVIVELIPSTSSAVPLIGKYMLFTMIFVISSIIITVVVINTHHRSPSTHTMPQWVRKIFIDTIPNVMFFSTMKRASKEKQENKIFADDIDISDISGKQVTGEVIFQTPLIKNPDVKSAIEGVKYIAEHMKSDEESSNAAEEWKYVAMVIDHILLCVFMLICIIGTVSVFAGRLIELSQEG", "UniProt P02714": "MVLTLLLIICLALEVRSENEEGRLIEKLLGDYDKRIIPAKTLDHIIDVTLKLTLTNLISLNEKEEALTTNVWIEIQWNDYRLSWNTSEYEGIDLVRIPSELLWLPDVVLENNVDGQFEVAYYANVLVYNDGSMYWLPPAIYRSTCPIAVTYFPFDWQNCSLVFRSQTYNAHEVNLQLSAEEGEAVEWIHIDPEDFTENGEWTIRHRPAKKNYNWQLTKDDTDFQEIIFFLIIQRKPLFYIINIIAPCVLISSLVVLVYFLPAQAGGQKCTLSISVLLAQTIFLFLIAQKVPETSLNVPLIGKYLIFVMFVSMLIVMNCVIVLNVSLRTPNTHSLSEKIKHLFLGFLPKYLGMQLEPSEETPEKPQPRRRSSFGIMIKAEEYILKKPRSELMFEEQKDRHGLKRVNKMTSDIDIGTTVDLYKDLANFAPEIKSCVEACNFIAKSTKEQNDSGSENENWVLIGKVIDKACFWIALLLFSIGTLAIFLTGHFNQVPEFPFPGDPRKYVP", "UniProt P02718": "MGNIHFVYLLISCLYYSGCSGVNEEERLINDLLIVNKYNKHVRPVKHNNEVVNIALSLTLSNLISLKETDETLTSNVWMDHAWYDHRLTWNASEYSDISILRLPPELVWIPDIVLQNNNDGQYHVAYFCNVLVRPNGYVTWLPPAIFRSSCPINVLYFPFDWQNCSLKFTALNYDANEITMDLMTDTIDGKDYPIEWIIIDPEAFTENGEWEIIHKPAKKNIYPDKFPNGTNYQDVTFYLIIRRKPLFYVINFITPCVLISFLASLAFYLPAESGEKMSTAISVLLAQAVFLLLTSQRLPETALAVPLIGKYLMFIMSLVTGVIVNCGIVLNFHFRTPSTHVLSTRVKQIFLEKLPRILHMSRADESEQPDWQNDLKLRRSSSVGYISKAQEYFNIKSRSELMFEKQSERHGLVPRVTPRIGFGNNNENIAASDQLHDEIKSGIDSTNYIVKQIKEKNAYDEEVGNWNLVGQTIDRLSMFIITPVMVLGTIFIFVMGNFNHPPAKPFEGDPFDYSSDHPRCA"},
  "source": "paper PMC6319706",
  "about": "(PLoS ONE, 2019)",
  "key": {"A. californica AChBP": {"target": "A. californica AChBP (Aplysia californica, UniProt Q8WSF8)", "test": "Radioligand assay, competition with [125I]-αBgt for A. californica AChBP", "settings": "mean ± SEM; [125I]-αBgt binding"}, "T. californica nAChR": {"target": "T. californica nAChR (Tetronarce californica, UniProt P02710+P02714+P02718)", "test": "Radioligand assay, competition with [125I]-αBgt for T. californica electric organ membranes", "settings": "inhibition of [125I]-αBgt binding; 95% CI in the row below"}},
  "data": [
    {"smiles": "COc1cc2c3cc1Oc1cc(ccc1O)C[C@@H]1c4c(cc(OC)c(O)c4Oc4ccc(cc4)C[C@@H]3N(C)CC2)CC[N+]1(C)C", "note": "[d-TC, d-tubocurarine, reference compound]", "values": [
      {"measurement": "nH (Hill slope)", "setting": "A. californica AChBP", "result": "-1.05 ± 0.02"},
      {"measurement": "IC50", "setting": "T. californica nAChR", "result": 390, "unit": "nM"}
    ]}
  ]
}
